Results of unrelated studies side by side (data: NIAID ChemDB).

Shared fields: tests in culture; species: Cryptosporidium parvum; measure: EC50

Two numbers with a dash give a range or band. ECn: concentration that inhibits the pathogen or its effect by n%. Lines come from different laboratories, so protocols vary. An empty or dashed field is not shown.

structure	strain or isolate	cell line	read by	value
O=[N+]([O-])c1cc(C(F)(F)F)cc([N+](=O)[O-])c1N1COC1	-	MDCK cells	ELISA / luminescence	6.16 µM
CCCCCCCCCCOc1cc2c(=O)c(C(=O)OCC)c[nH]c2cc1OCC	-	-	-	>50 µM
NC[C@@H]1O[C@H](O[C@H]2[C@@H](O)[C@H](O[C@@H]3[C@@H](O)[C@H](N)C[C@H](N)[C@H]3O[C@H]3O[C@H](CO)[C@@H](O)[C@H](O)[C@H]3N)O[C@@H]2CO)[C@H](N)[C@@H](O)[C@@H]1O	-	Caco2	-	<100 µM
CO[C@H]1/C=C/O[C@@]2(C)Oc3c(C)c(O)c4c(O)c(c(/C=N/N5CCN(C)CC5)c(O)c4c3C2=O)NC(=O)/C(C)=C\C=C\[C@H](C)[C@H](O)[C@@H](C)[C@@H](O)[C@@H](C)[C@H](OC(C)=O)[C@@H]1C	-	-	cell count	>50 µM
CCOC(=O)c1oc2cc(O)cc(O)c2c(=O)c1-c1cccc(Br)c1	-	-	-	3.38 µg/mL
O=[N+]([O-])c1cc(C(F)(F)F)cc([N+](=O)[O-])c1N1CCCCC1	-	MDCK cells	ELISA / luminescence	2.1 µM
O=C(O[C@@H]1Cc2c(O)cc(O)cc2O[C@@H]1c1cc(O)c(O)c(O)c1)c1cc(O)c(O)c(O)c1	-	HCT-8	-	>100 µM
CCN(CC)CCCC(C)Nc1ccnc2cc(Cl)ccc12	-	HCT-8	-	>1 µM
CS(=O)(=O)c1cnc(NC(=O)c2ccccc2O)s1	-	-	-	4.6 µg/mL
OO	-	-	-	500–750 µM
O=S(=O)(F)Cc1ccccc1	-	-	-	<3000 µM
CCCCc1cc2c(=O)c(C(=O)OC)c[nH]c2cc1OCc1ccccc1	Calf isolate	L929	-	>20 µg/mL
CCCN(CCC)c1c([N+](=O)[O-])cc(C(=O)NC)cc1[N+](=O)[O-]	-	MDCK cells	ELISA / luminescence	4.7 µM
CN[C@@H]1[C@@H](O)[C@@H](O[C@@H]2[C@@H](O)[C@H](O[C@H]3O[C@H]([C@@H](C)O)[C@@H](O)[C@H](O)[C@H]3N)[C@@H](N)C[C@H]2N)OC[C@]1(C)O	-	APH-CACO-2	-	<1000 µg/mL
C[C@H]1[C@H](O)[C@@H](C)/C=C/C=C/C=C/C=C/C=C/C=C/C=C/[C@H](O[C@@H]2O[C@H](C)[C@@H](O)[C@H](N)[C@@H]2O)C[C@@H]2O[C@](O)(C[C@@H](O)C[C@@H](O)CC[C@H](O)[C@@H](O)C[C@@H](O)CC(=O)O[C@H]1C)C[C@H](O)[C@H]2C(=O)O	Calf isolate	L929	-	>20 µg/mL
CC[C@H]1OC(=O)[C@H](C)[C@@H](O[C@H]2C[C@@](C)(OC)[C@@H](O)[C@H](C)O2)[C@H](C)[C@@H](O[C@@H]2O[C@H](C)C[C@H](N(C)C)[C@H]2O)[C@](C)(OC)C[C@@H](C)C(=O)[C@H](C)[C@@H](O)[C@]1(C)O	-	-	cell count	>50 µM
CCCc1ncc(C[n+]2ccccc2C)c(N)n1	Calf isolate	L929	-	>4 µg/mL
CO[C@@]12[C@H](COC(N)=O)C3=C(C(=O)C(C)=C(N)C3=O)N1C[C@@H]1N[C@@H]12	-	HCT-8	-	<1 µM
O=[N+]([O-])c1cc(C(F)(F)F)cc([N+](=O)[O-])c1Nc1ccccc1	-	MDCK cells	ELISA / luminescence	0.12 µM
COc1cc([C@H]2Oc3cc([C@H]4Oc5cc(O)cc(O)c5C(=O)[C@@H]4O)ccc3O[C@@H]2CO)ccc1O	-	HCT-8	-	15 µM
CCCN(CCC)c1c([N+](=O)[O-])cc(S(C)(=O)=O)cc1[N+](=O)[O-]	-	-	-	4.5 µM
C[C@@H]1O[C@@H](OC[C@H]2O[C@@H](Oc3c(-c4ccc(O)c(O)c4)oc4cc(O)cc(O)c4c3=O)[C@H](O)[C@@H](O)[C@@H]2O)[C@H](O)[C@H](O)[C@H]1O	-	HCT-8	-	>100 µM
CC(=O)N[C@@H](CC(C)C)C(=O)N[C@@H](CC(C)C)C(=O)N[C@H](C=O)CCCN=C(N)N	-	-	cell count / microscopy	<500 µg/mL
CCCN(CCC)c1c([N+](=O)[O-])cc(C(F)(F)F)cc1[N+](=O)[O-]	-	MDCK	-	2 µM
CC[C@@H](C(=O)[C@@H](C)[C@@H](O)[C@H](C)CCc1ccc(C)c(O)c1C(=O)O)[C@H]1O[C@](CC)([C@H]2CC[C@](O)(CC)[C@H](C)O2)C[C@@H]1C	-	HCT-8	-	<1 µM
NC[C@@H]1O[C@H](O[C@H]2[C@@H](O)[C@H](O[C@@H]3[C@@H](O)[C@H](N)C[C@H](N)[C@H]3O[C@H]3O[C@H](CO)[C@@H](O)[C@H](O)[C@H]3N)O[C@@H]2CO)[C@H](N)[C@@H](O)[C@@H]1O	Iowa bovine isolate	MDCK	antigen	92.3 µM
CO[C@@H]1[C@@H](OC)[C@H](C)[C@@](O)(CC(=O)O)O[C@H]1[C@H](C)[C@H]1O[C@@]2(CC[C@@](C)([C@H]3CC[C@@](C)([C@@H]4O[C@@H]([C@H]5O[C@](C)(O)[C@H](C)C[C@@H]5C)C[C@@H]4O[C@@H]4C[C@H](OC)[C@@H](OC)[C@H](C)O4)O3)O2)C[C@H](O)[C@H]1C	-	-	-	<0.5 µg/mL

For reference, 4 entries again:

structure,strain or isolate,cell line,read by,value
CCN(CC)CCCC(C)Nc1ccnc2cc(Cl)ccc12,-,HCT-8,-,>1 µM
O=C(O[C@@H]1Cc2c(O)cc(O)cc2O[C@@H]1c1cc(O)c(O)c(O)c1)c1cc(O)c(O)c(O)c1,-,HCT-8,-,>100 µM
CCCc1ncc(C[n+]2ccccc2C)c(N)n1,Calf isolate,L929,-,>4 µg/mL
CCCCc1cc2c(=O)c(C(=O)OC)c[nH]c2cc1OCc1ccccc1,Calf isolate,L929,-,>20 µg/mL